A mixed list of measured activities; the numbers were collected in NIAID ChemDB.

Common to all: growth or infection tests

Neighbouring rows are from separate reports.

compound,organism,strain or isolate,cell line,method,measure,dose,result
C/C=C\[C@@H]1C[C@H](C(=O)O)N[C@H]1[C@@H](NC(C)=O)[C@](C)(CCC)OC,Influenza B virus,Isolate C35C,MDCK,plaque count,EC50,,<0.01 µg/mL
Oc1ccccc1N=Cc1ccc(F)cc1,Cryptococcus gattii,29/10893,,,MIC99,,8 µg/mL
O=C(NCCc1ccccc1)c1c2n(c(=O)n1-c1ccccc1)CCN(C(=O)c1ccc(Br)c(Cl)c1)C2,Hepatitis B virus,,HepG2.117,PCR,EC50,,0.5–5 µM
Cc1cc(-c2ccc(N=Nc3c(N)c(S(=O)(=O)O)cc4cc(S(=O)(=O)O)ccc34)c(C)c2)ccc1N=Nc1c(N)ccc2cc(S(=O)(=O)O)ccc12,Rhinovirus,,Human embryonic lung cells,cytopathic effect,inhibition,5 µg/mL,0%
O=C(NCc1ccc(Cl)cc1)c1c[nH]c2ccc(CCCO)cc2c1=O,Varicella zoster virus,RAI,,plaque count,EC50,,0.1 µM
O=S(=O)([O-])c1ccc2c(O)cc(S(=O)(=O)[O-])cc2c1,Adenovirus,TYPE 3,Human embryonic lung cells,cytopathic effect,inhibition,10 µg/mL,43%
CCO/N=C/c1ccc(OCCC2CCN(c3ccc(Cl)nn3)CC2)cc1,Rhinovirus,50-525-CV54 (ICAM-1 receptor group 85),KB,neutral red,EC50,,0.01 µM
CCOC(=O)c1c(C)nc(NCCCNc2ccnc3cc(Cl)ccc23)nc1-c1ccccc1,Cryptococcus gattii,23/10993,,,MIC99,,5.7 µg/mL
Nc1nc(=O)n([C@@H]2O[C@H](CO)[C@@H](O)[C@@H]2F)cc1I,Varicella zoster virus,Kawaguchi,HELF,plaque count,inhibition,0.01 µg/mL,15%
CC(=O)N[C@H]1[C@H]([C@H](O)[C@H](O)CO)OC(C(=O)O)=C[C@@H]1N=C(N)N,Influenza A virus,Influenza A/Beijing/32/92 (H3N2),MDCK,,EC50,,0.65 µM
O=c1[nH]c(=O)n([C@@H]2O[C@H](CO)[C@@H](O)[C@@H]2O)cc1/C=C/Cl,Varicella zoster virus,Ohtomo,HELF,plaque count,inhibition,0.0001 µg/mL,68%
NCCS(=O)(=O)O,Rhinovirus,,Human embryonic lung cells,cytopathic effect,inhibition,50 µg/mL,10%
COc1ccc(CNC(=O)c2c3n(c(=O)n2-c2ccc(-n4cccn4)cc2)CCN(C(=O)c2ccc(Br)c(Cl)c2)C3)c(F)c1,Hepatitis B virus,,HepG2.117,PCR,EC50,,0.1–0.5 µM
Cc1cc(CCCOc2c(C)cc(-c3noc(C(F)(F)F)n3)cc2C)on1,Rhinovirus,Isolate 18,OHIO HELA-I,cytopathic effect / visual reading,EC50,,0.94 µg/mL
Nc1ccc(S(=O)(=O)[O-])c2c(S(=O)(=O)[O-])ccc(O)c12,Adenovirus,TYPE 3,Human amnion AV3 cells,cytopathic effect,inhibition,10 µg/mL,0%
COc1ccc(-n2c(C(=O)NCc3ccccc3)c3n(c2=O)CCN(C(=O)c2ccc(Cl)c(Cl)c2)C3)cc1,Hepatitis B virus,,HepG2.117,PCR,EC50,,0.5–5 µM
Cc1cc(-c2ccc(N=Nc3c(S(=O)(=O)O)cc4cc(S(=O)(=O)O)cc(N)c4c3O)c(C)c2)ccc1N=Nc1c(S(=O)(=O)O)cc2cc(S(=O)(=O)O)cc(N)c2c1O,Adenovirus,TYPE 3,Human amnion AV3 cells,cytopathic effect,inhibition,50 µg/mL,0%
O=c1[nH]c(=O)n([C@@H]2O[C@H](CO)[C@@H](O)[C@@H]2O)cc1/C=C/Br,Varicella zoster virus,Kawaguchi,HELF,plaque count,inhibition,0.0001 µg/mL,33%
CCOC(=O)c1c(C)nc(OCCCNc2ccnc3cc(Cl)ccc23)nc1-c1ccccc1,Cryptococcus neoformans,ATCC 28957,,,MIC99,,1.4 µg/mL
C=CCc1ccc(O)c(OC)c1,Candida tropicalis,3220,,turbidity,MIC90,,500 µg/mL
C[C@H](Oc1ccc([C@@H](C)NC(=O)c2c3n(c(=O)n2-c2ccc(OCC(F)(F)F)cc2)CCN(C(=O)c2ccc(Br)c(Cl)c2)C3)c(F)c1)C(N)=O,Hepatitis B virus,,HepG2.117,PCR,EC50,,0.5–5 µM
C=Cc1cn([C@@H]2O[C@H](CO)[C@@H](O)[C@@H]2O)c(=O)[nH]c1=O,Varicella zoster virus,OKA,HELF,plaque count,inhibition,1 µg/mL,91%
CCOC(=O)c1cnc(NCCCCNc2ccnc3cc(Cl)ccc23)nc1C,Cryptococcus neoformans,WP,,,MIC99,,8 µg/mL
Nc1ccc2c(O)cc(S(=O)(=O)[O-])cc2c1S(=O)(=O)[O-],Adenovirus,TYPE 3,Human embryonic lung cells,cytopathic effect,inhibition,10 µg/mL,50%
Oc1ccccc1N=Cc1cccc(O)c1O,Cryptococcus neoformans,28JF,,,MIC99,,4 µg/mL
CCc1cn([C@@H]2O[C@H](CO)[C@@H](O)[C@@H]2O)c(=O)[nH]c1=O,Varicella zoster virus,OKA,HELF,plaque count,inhibition,100 µg/mL,0%
Nc1nc2c(ncn2C=C2CC2CO)c(=O)[nH]1,Human cytomegalovirus,VR6264 (ganciclovir-resistant),,plaque count,EC50,,4 µM
Cc1nc(NCCCCNc2ccnc3cc(Cl)ccc23)nc(-c2ccccc2)c1C(=O)OC(C)C,Cryptococcus neoformans,C-3-1,,,MIC99,,2 µg/mL

Again, the opening 4 rows:

compound,organism,strain or isolate,cell line,method,measure,dose,result
C/C=C\[C@@H]1C[C@H](C(=O)O)N[C@H]1[C@@H](NC(C)=O)[C@](C)(CCC)OC,Influenza B virus,Isolate C35C,MDCK,plaque count,EC50,,<0.01 µg/mL
Oc1ccccc1N=Cc1ccc(F)cc1,Cryptococcus gattii,29/10893,,,MIC99,,8 µg/mL
O=C(NCCc1ccccc1)c1c2n(c(=O)n1-c1ccccc1)CCN(C(=O)c1ccc(Br)c(Cl)c1)C2,Hepatitis B virus,,HepG2.117,PCR,EC50,,0.5–5 µM
Cc1cc(-c2ccc(N=Nc3c(N)c(S(=O)(=O)O)cc4cc(S(=O)(=O)O)ccc34)c(C)c2)ccc1N=Nc1c(N)ccc2cc(S(=O)(=O)O)ccc12,Rhinovirus,,Human embryonic lung cells,cytopathic effect,inhibition,5 µg/mL,0%

A number after MIC or MFC names an inhibition level or a share of isolates. ECn is the concentration giving n% inhibition of infection, replication or growth. Inhibition is in % at the dose shown (toxicity tests: loss of growth or viability). Blank or dashed fields: not listed here. a–b is a range or a potency band.